Literature values, collected in patent US20040096356A1, “Assay device for determining analytes in a liquid dairy product” (priority 1997, published 2004).

Tested on: protein isolated from an antibiotic-sensitive microorganism, such as Bacillus stearothermophilus
Settings: milk; according to Example 1 of EP 593 112; cited from earlier work

Compound	concentration down to which the test detects the antibiotic
CO/N=C(\C(=O)N[C@@H]1C(=O)N2C(C(=O)O)=C(CSC(=O)c3ccco3)CS[C@H]12)c1csc(N)n1 [Ceftiofur, ceftiofur]	5 ppb
CC1(C)S[C@@H]2[C@H](NC(=O)Cc3ccccc3)C(=O)N2[C@H]1C(=O)O [Penicillin G, penicillin G]	~5 ppb
CC1(C)S[C@@H]2[C@H](NC(=O)[C@H](N)c3ccc(O)cc3)C(=O)N2[C@H]1C(=O)O [amoxicillin]	5 ppb
CC1(C)S[C@@H]2[C@H](NC(=O)[C@H](N)c3ccccc3)C(=O)N2[C@H]1C(=O)O [ampicillin]	10 ppb
